PubChem BioAssay AID504761, Drosophila RNAi Screening Center | 2011
The screen tested about 22,000 reagents; this is a random part of those with a known target gene and a result. Of all reagents, 116 (0.52%) were called active. 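Calls depend on retest data that are not deposited; infection was ranked per plate without normalising between plates; the unit of the infection score is not given.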 Raw values vary from plate to plate and are shown uncorrected. Names joined by + are all predicted targets of the reagent. Further read-outs or replicates are left out here. Reagent sequences are not shown. Not stated in the record: the amount of reagent, the time to read-out.

Aim: 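Genome-wide fly cell screen for genes dengue virus requires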 (primary screen)
System: D.Mel-2 cells from Drosophila
Knock-down reagent: long dsRNA against Drosophila genes
Treatment: infection with dengue virus type 2; dose and infection time not stated
Detection: 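Per well on two replicate plates, imaging gave the percent of cells positive for viral envelope protein, ranked by infection, and a nuclear count of cells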
Scale: infection score: higher = more virus-infected cells; cell count: higher = more cells in the well
Active means: 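Low infection ranks in the two replicates (chance level up to 0.065) followed by a retest with a 1.5-fold or larger significant decrease, p below 0.05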
Calls: active = confirmed: knock-down lowers infection; inactive = not picked or not confirmed

no.	Target gene	dsRNA	infection score, replicate 1	infection score, replicate 2	cell count, replicate 1	Outcome
1	CG4520	DRSC15590	3.63	8.15	6564	inactive
2	CG4520	DRSC26216	9.34	8.13	5073	inactive
3	CG1958	DRSC18196		1.65	701	inactive
4	CG1958	DRSC25599	3.87	7.11	6593	inactive
5	magu	DRSC06832	7.24	11	5941	inactive
6	CaBP1	DRSC01984	12.6	6.13	6467	inactive
7	Tep5Psi	DRSC02183	4.87	3.27	6286	inactive
8	Tep5Psi	DRSC02184	10.2	5.32	2171	inactive
9	Mal-B1	DRSC02416	4.85	7.16	6579	inactive
10	Mal-B1	DRSC25542	9.56	5.37	5700	inactive
11	CG15127	DRSC05802	0.65	0.37	5962	inactive
12	CG15127	DRSC06549	5.91	1.23	5941	inactive
13	Orcokinin	DRSC04202	16.8	27.2	5506	inactive
14	Ir60d	DRSC04218	7.44	9.35	6584	inactive
15	CG14042 + SP555	DRSC02367	5.33	3.82	5944	inactive
16	CG14042 + SP555	DRSC03428	3.27	21.8	6633	inactive
17	pncr003:2L (retired record)	DRSC22149	5.68	10.2	4628	inactive
18	pncr003:2L (retired record)	DRSC29855	17.1	12.6	6264	inactive
19	CG7448 (retired record)	DRSC11828	1.94	9.74	6756	inactive
20	CG7448 (retired record)	DRSC22485	3.09		5897	inactive

A portion from the list above, for reference:
no.	Target gene	dsRNA	infection score, replicate 1	infection score, replicate 2	cell count, replicate 1	Outcome
9	Mal-B1	DRSC02416	4.85	7.16	6579	inactive
10	Mal-B1	DRSC25542	9.56	5.37	5700	inactive
11	CG15127	DRSC05802	0.65	0.37	5962	inactive

More entries follow.
no.	Target gene	dsRNA	infection score, replicate 1	infection score, replicate 2	cell count, replicate 1	Outcome
21	mRpL10	DRSC00312	17.6	23.9	4822	inactive
22	CG12825	DRSC06174	0.97	14.5	6364	inactive
23	CG12825	DRSC26984	2.11	24.9	6544	inactive
24	CG5107	DRSC15716	1.98	3.2	6655	inactive
25	CG1648	DRSC06610	1.1	1.22	6437	inactive
26	CG1648	DRSC27450	6.33	34.2	6764	inactive
27	Dsp1	DRSC23078	2.3	13	5519	inactive
28	Dsp1	DRSC28760	8.86	1.81	1197	inactive
29	colt	DRSC00808	1.99	9.16	6130	inactive
30	colt	DRSC29025	0.25	21.8	396	inactive
31	CG5756	DRSC06950	16	7.01	5867	inactive
32	CG5756	DRSC28245	9.53	8.17	6005	inactive
33	PIG-S	DRSC14643	5.69		6591	inactive
34	PIG-S	DRSC15388	1.35	8.89	5695	inactive
35	PIG-S	DRSC15952	6.69	21.9	6124	inactive
36	Alp8	DRSC04353	25.7	15.5	5992	inactive
37	Alp8	DRSC27635	6.82	5.94	6236	inactive
38	Prosbeta4R2	DRSC00503	3.22	1.36	6240	inactive
39	Prosbeta4R2	DRSC28235	17.6	3.53	5631	inactive
